From article PMC8136818
Positions count from the first letter of the chain named. For some assays here: Protein sequences can lack the tags named with them. For at least one entry, the source does not settle the construct or the ends of the probe. For some assays here: No signal at the amounts used counts as a negative. For some assays here: At least one verdict was read from the data and is not stated in words by the source.

Assays:
[1] = test system: T1, SmpO49 (Staphylococcus aureus plasmid pWBG749); assay: SPR (ReDCaT); conditions: 10 mM HEPES, 3 mM EDTA, 0.05% Tween 20, NaCl 150 mM (SmpO49 screens), 300 mM (SmpO45, SmpO408, SmpOUNa screens) or 250 mM (Table S4), pH and temperature not stated, high values mean tight binding, recombinant protein, protein details: His6-TEV, cleaved, counted as no binding
T1 sequence (looked up, limits assumed): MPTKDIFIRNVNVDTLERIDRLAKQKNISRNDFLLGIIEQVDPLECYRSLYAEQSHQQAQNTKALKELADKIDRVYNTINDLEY

[2] = test system: T2, SmpO49-F7K (Staphylococcus aureus plasmid pWBG749); assay: SPR (ReDCaT); conditions: 250 mM NaCl, 10 mM HEPES, 3 mM EDTA, 0.05% Tween 20, NaCl 150 mM (SmpO49 screens), 300 mM (SmpO45, SmpO408, SmpOUNa screens) or 250 mM (Table S4), pH and temperature not stated, high values mean tight binding, recombinant protein, protein details: His6-TEV, cleaved, counted as no binding
T2 sequence (looked up, limits assumed): T1 sequence (looked up, limits assumed) with F7K

[3] = test system: T3, SmpO408 (Staphylococcus aureus M0408); assay: SPR (ReDCaT); conditions: 250 mM NaCl, 10 mM HEPES, 3 mM EDTA, 0.05% Tween 20, NaCl 150 mM (SmpO49 screens), 300 mM (SmpO45, SmpO408, SmpOUNa screens) or 250 mM (Table S4), pH and temperature not stated, high values mean tight binding, recombinant protein, protein details: His6-TEV, cleaved, counted as no binding
T3 sequence (looked up, limits assumed): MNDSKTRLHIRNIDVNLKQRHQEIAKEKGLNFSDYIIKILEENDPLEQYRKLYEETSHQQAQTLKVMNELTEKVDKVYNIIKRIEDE

[4] = test system: T4, SmpO45 (Staphylococcus aureus plasmid pWBG745); assay: SPR (ReDCaT); conditions: 10 mM HEPES, 3 mM EDTA, 0.05% Tween 20, NaCl 150 mM (SmpO49 screens), 300 mM (SmpO45, SmpO408, SmpOUNa screens) or 250 mM (Table S4), pH and temperature not stated, high values mean tight binding, recombinant protein, protein details: His6-TEV, cleaved, counted as no binding
T4 sequence (looked up, limits assumed): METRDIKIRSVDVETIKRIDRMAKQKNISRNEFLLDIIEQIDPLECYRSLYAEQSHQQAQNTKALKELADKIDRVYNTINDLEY

[5] = test system: T2, SmpO49-F7K (Staphylococcus aureus plasmid pWBG749); assay: SPR; conditions: SPR: 10 mM HEPES, 150-300 mM NaCl, 3 mM EDTA, 0.05% Tween 20, 1 uM protein (pH, temperature not given), recombinant protein, protein details: His6-TEV, cleaved
[6] = test system: T5, SmpOUNa; assay: SPR; conditions: SPR: 10 mM HEPES, 150-300 mM NaCl, 3 mM EDTA, 0.05% Tween 20, 1 uM protein (pH, temperature not given), recombinant protein, protein details: His6-TEV, cleaved
T5 sequence (looked up, limits assumed): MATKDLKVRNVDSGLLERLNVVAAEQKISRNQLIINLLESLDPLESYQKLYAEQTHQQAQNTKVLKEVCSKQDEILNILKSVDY

[7] = test system: SmpO45-K7F (Staphylococcus aureus plasmid pWBG745); assay: SPR; conditions: SPR: 10 mM HEPES, 150-300 mM NaCl, 3 mM EDTA, 0.05% Tween 20, 1 uM protein (pH, temperature not given); recombinant protein; protein details: His6-TEV, cleaved
[8] = test system: T4, SmpO45 (Staphylococcus aureus plasmid pWBG745); assay: SPR; conditions: 250 mM NaCl; SPR: 10 mM HEPES, 150-300 mM NaCl, 3 mM EDTA, 0.05% Tween 20, 1 uM protein (pH, temperature not given); recombinant protein; protein details: His6-TEV, cleaved
[9] = test system: T5, SmpOUNa; assay: SPR (ReDCaT); conditions: 250 mM NaCl, 10 mM HEPES, 3 mM EDTA, 0.05% Tween 20, NaCl 150 mM (SmpO49 screens), 300 mM (SmpO45, SmpO408, SmpOUNa screens) or 250 mM (Table S4), pH and temperature not stated, high values mean tight binding, recombinant protein, protein details: His6-TEV, cleaved, counted as no binding
[10] = test system: T3, SmpO408 (Staphylococcus aureus M0408); assay: SPR; conditions: SPR: 10 mM HEPES, 150-300 mM NaCl, 3 mM EDTA, 0.05% Tween 20, 1 uM protein (pH, temperature not given), recombinant protein, protein details: His6-TEV, cleaved
[11] = test system: T6, SmpOSep (Staphylococcus epidermidis VCU120); assay: SPR (ReDCaT); conditions: 250 mM NaCl, 10 mM HEPES, 3 mM EDTA, 0.05% Tween 20, NaCl 150 mM (SmpO49 screens), 300 mM (SmpO45, SmpO408, SmpOUNa screens) or 250 mM (Table S4), pH and temperature not stated, high values mean tight binding, recombinant protein, protein details: His6-TEV, cleaved, counted as no binding
T6 sequence (looked up, limits assumed): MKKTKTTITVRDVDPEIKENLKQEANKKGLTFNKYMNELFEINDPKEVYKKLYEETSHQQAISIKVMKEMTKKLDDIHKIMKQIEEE

[12] = test system: T1, SmpO49 (Staphylococcus aureus plasmid pWBG749); assay: SPR; conditions: SPR: 10 mM HEPES, 150-300 mM NaCl, 3 mM EDTA, 0.05% Tween 20, 1 uM protein (pH, temperature not given), recombinant protein, protein details: His6-TEV, cleaved
[13] = test system: T6, SmpOSep (Staphylococcus epidermidis VCU120); assay: SPR; conditions: 250 mM NaCl; SPR: 10 mM HEPES, 150-300 mM NaCl, 3 mM EDTA, 0.05% Tween 20, 1 uM protein (pH, temperature not given); recombinant protein; protein details: His6-TEV, cleaved
[14] = 250 mM NaCl, letters put together from the description
[15] = letters put together from the description
[16] = 150 mM NaCl, letters put together from the description
[17] = 300 mM NaCl, letters put together from the description

Sequence: AAAATGGGTACATATT (double strand) [ossBUNa]
- binding signal [1, 14]: 0.1 %Rmax
- binding signal [2, 15]: 0 %Rmax
- binding signal [3, 15]: 0 %Rmax

Sequence: AAACCCTTGGAATGTCTGGCTTTGCCAGAC (double strand) [OT49.7]
- binding signal [1, 16]: 0.0706 %Rmax

Sequence: AAATGTCCTAAAACCCTTGGAATGTCTGGC (double strand) [OT49.6]
- binding signal [1, 16]: 0 %Rmax

Sequence: AACCCTTGAAATGGCTGGCTTTGCCAGCCA (double strand) [OT45.7]
- binding signal [4, 17]: 0.0787 %Rmax

Sequence: AATATGGGGTCATATT (double strand) [ossB45]
- binding signal [1, 14]: 0.2 %Rmax

Sequence: AATGTCTGGCTTTGCCAGACCTATCATTGT (double strand) [OT49.8]
- binding signal [1, 16]: 0 %Rmax

Sequence: AATTCTTTAAAACCCTTGAAATGGCTGGCT (double strand) [OT45.6]
- binding signal [4, 17]: 0.136 %Rmax

Sequence: ACAAAAATGTGACACTAGGTGTTTTTATGA (double strand) [OT49.2]
- binding signal [1, 16]: 0 %Rmax

Sequence: ACAAAACTGTGACACTATAGTTTATTGTGG (double strand) [OT45.2]
- binding signal [4, 17]: 0.0962 %Rmax

Sequence: ATATAGTGTCACAAAAATGTGACACTAGGT (double strand) [OT49.1]
- binding signal [1, 16]: 0 %Rmax

Sequence: ATATAGTGTCACAAAACTGTGACACTATAG (double strand) [OT45.1]
- binding signal [4, 17]: 0.144 %Rmax

Sequence: ATGGCTGGCTTTGCCAGCCACCCCATAAAA (double strand) [OT45.8]
- binding signal [4, 17]: 0.18 %Rmax

Sequence: ATTGTGCGGTCACTTT (double strand) [ossA45-7]
- binding signal [4, 17]: 0.194 %Rmax

Sequence: ATTGTGGCGTCACTTT (double strand) [ossA45-8]
- binding signal [4, 17]: 0.313 %Rmax

Sequence: ATTGTGGGGTCACTTT (double strand) [ossA45]
- binding signal ([1]; 250 mM NaCl): 0.1 %Rmax

Sequence: ATTGTGGGGTCACTTT / AAAGTGACCCCACAATCCTACCCTACGTCCTCCTGC [ossA45]
- binding result ([5]; as strong as SmpO45): binds
- binding result ([6]; 250 mM NaCl): binds
- binding result [7]: no binding
- binding result [8]: binds

Sequence: CCGATGATAGCAAATT (double strand) [ossB49]
- binding signal [2, 15]: 0 %Rmax
- binding signal [9, 15]: 0 %Rmax
- binding signal [3, 15]: 0 %Rmax
- binding signal [4, 14]: 0 %Rmax

Sequence: CGGTTTTATAGGCGCCTAATAAAAACCTCT / AGAGGTTTTTATTAGGCGCCTATAAAACCGCCTACCCTACGTCCTCCTGC [OT408.5]
- binding result ([10]; 300 mM NaCl): binds

Sequence: GTGACCCCCATAAGAT (double strand) [ossAUNa]
- binding signal ([1]; 250 mM NaCl): 0 %Rmax
- binding signal [11]: 0 %Rmax

Sequence: GTGACCCCCATAAGAT / ATCTTATGGGGGTCACCCTACCCTACGTCCTCCTGC [ossAUNa]
- binding result ([6]; 250 mM NaCl): binds
- binding result [7]: no binding

Sequence: GTTTTTATGATATCACTATGAAATGTCCTA / TAGGACATTTCATAGTGATATCATAAAAACCCTACCCTACGTCCTCCTGC [OT49.4]
- binding result ([12]; 150 mM NaCl): binds

Sequence: TAAATGTATGCATATT (double strand) [ossBSep]
- binding signal [1, 14]: 0.1 %Rmax
- binding signal [2, 15]: 0 %Rmax
- binding signal [9, 15]: 0 %Rmax
- binding signal [3, 15]: 0 %Rmax
- binding signal [4, 14]: 0.3 %Rmax

Sequence: TAATAGGTGGCAAATT (double strand) [ossB408]
- binding signal [1, 14]: 0.2 %Rmax
- binding signal [2, 15]: 0 %Rmax
- binding signal [9, 15]: 0 %Rmax
- binding signal [11, 15]: 0.1 %Rmax

Sequence: TATCACTATGAAATGTCCTAAAACCCTTGG (double strand) [OT49.5]
- binding signal [1, 16]: 0 %Rmax

Sequence: TTAATTTTTGTGACCCCCATAAGATAAATG / CATTTATCTTATGGGGGTCACAAAAATTAACCTACCCTACGTCCTCCTGC [OTUNA.4]
- binding result ([6]; 300 mM NaCl): binds

Sequence: TTATAGGCGCCTAATA (double strand) [ossA408]
- binding signal ([1]; 250 mM NaCl): 0 %Rmax
- binding signal [2]: 0 %Rmax
- binding signal [9]: 0 %Rmax
- binding signal [11]: 0 %Rmax
- binding signal ([4]; 250 mM NaCl): 0 %Rmax

Sequence: TTATAGGCGCCTAATA / TATTAGGCGCCTATAACCTACCCTACGTCCTCCTGC [ossA408]
- binding result [7]: no binding
- binding result ([10]; 250 mM NaCl): binds

Sequence: TTTATGAAATCACTAT (double strand) [ossA49-8]
- binding signal [1, 16]: 0.00478 %Rmax

Sequence: TTTATGATAACACTAT (double strand) [ossA49-10]
- binding signal [1, 16]: 0.0987 %Rmax

Sequence: TTTATGATATCACTAT (double strand) [ossA49]
- binding signal [2]: 0 %Rmax
- binding signal [9]: 0 %Rmax
- binding signal [3]: 0.1 %Rmax
- binding signal ([4]; 250 mM NaCl): 0 %Rmax

Sequence: TTTATGATATCACTAT / ATAGTGATATCATAAACCTACCCTACGTCCTCCTGC [ossA49]
- binding result ([12]; 250 mM NaCl): binds
- binding result [5]: no binding
- binding result [7]: no binding

Sequence: TTTATGATTTCACTAT (double strand) [ossA49-9]
- binding signal [1, 16]: 0.0202 %Rmax

Sequence: TTTATGTTATCACTAT (double strand) [ossA49-7]
- binding signal [1, 16]: 0.101 %Rmax

Sequence: TTTGCATACATTTAAA / TTAAATGTATGCAAA [ossASep]
- binding signal ([1]; 250 mM NaCl): 0 %Rmax
- binding signal [2]: 0 %Rmax
- binding signal [9]: 0 %Rmax
- binding signal [3]: 0 %Rmax
- binding signal ([4]; 250 mM NaCl): 0 %Rmax

Sequence: TTTGCATACATTTAAA / TTAAATGTATGCAAACCTACCCTACGTCCTCCTGC [ossASep]
- binding result [7]: no binding
- binding result [13]: binds

Sequence: TTTGCCAGACCTATCATTGTCCGATGATAG (double strand) [OT49.9]
- binding signal [1, 16]: 0 %Rmax
